Experimental data as given in publication PMC12841663, “Antiprotozoal Potential of Cultivated Geranium macrorrhizum Against Giardia duodenalis, Trichomonas gallinae and Leishmania infantum” (International Journal of Molecular Sciences, 2026).

Legend:
[1] = tested on: G. duodenalis trophozoites; experiment: Anti-Giardia activity assay (MTT viability); format: cell-based, Giardia duodenalis; details: Selectivity index (CC50 Vero/IC50)
Method: Anti-Giardia (AG) activity assays were conducted on G. duodenalis trophozoites from the ATCC® 30957 strain (assemblage A), using flat-bottom microwell plates in quadruplicate. […] Incubation was carried out for 24 h at 37 °C. EOs and pure compounds were solved in DMSO (Sigma, Madrid, Spain) (<1% final concentration). […] Trophozoites/promastigotes viability was assessed using the modified MTT colorimetric assay, as described previously in the literature, with results further validated by microscopic examination. The plate was analyzed in a spectrophotometer at a wavelength of 570 nm. The percentage of antiparasitic activity was calculated as growth inhibition, using the following formula: % AT = 100 - [(Ap - Ab) ÷ (Ac - Ab)] × 100, where Ap is the absorbance of the tested product, Ab the absorbance of the blank and Ac the absorbance of the control wells (culture without treatment). […] Metronidazole (Acros Organics, Madrid, Spain) served as a reference compound for anti-Giardia activity and Anti-Trichomonas activity and amphotericin B for anti-Leishmania activity. Data was analyzed using STATGRAPHICS Centurion XIX ([…].com) (Statgraphics Technologies, Inc., The Plains, VA, USA). The mammalian cells and trophozoites viability were tested with each compound in a dose-response experiment to calculate their relative potency (CC50 or IC50 value, respectively).

[2] = tested on: T. gallinae trophozoites; experiment: Anti-Trichomonas activity assay (MTT viability); format: cell-based, Trichomonas gallinae; details: Selectivity index (CC50 Vero/IC50)
Method: The anti-Trichomonas (AT) activity assay utilized T. gallinae trophozoites from an isolate obtained from a wood pigeon by Dr. […] EOs and pure compounds were solved in DMSO (Sigma, Madrid, Spain) (<1% final concentration). […] Trophozoites/promastigotes viability was assessed using the modified MTT colorimetric assay, as described previously in the literature, with results further validated by microscopic examination. The plate was analyzed in a spectrophotometer at a wavelength of 570 nm. The percentage of antiparasitic activity was calculated as growth inhibition, using the following formula: % AT = 100 - [(Ap - Ab) ÷ (Ac - Ab)] × 100, where Ap is the absorbance of the tested product, Ab the absorbance of the blank and Ac the absorbance of the control wells (culture without treatment). […] Metronidazole (Acros Organics, Madrid, Spain) served as a reference compound for anti-Giardia activity and Anti-Trichomonas activity and amphotericin B for anti-Leishmania activity. Data was analyzed using STATGRAPHICS Centurion XIX ([…].com) (Statgraphics Technologies, Inc., The Plains, VA, USA). The mammalian cells and trophozoites viability were tested with each compound in a dose-response experiment to calculate their relative potency (CC50 or IC50 value, respectively).

| SMILES | G. duodenalis SI [1] | T. gallinae SI [2] |
| --- | --- | --- |
| C=C[C@]1(C)CC(=O)C(=C(C)C)C[C@H]1C(=C)C [Compound 1, β-elemenone] | 1 | – |
| CC(C)=C1C/C=C(\C)CC/C=C(\C)CC1=O [Compound 2, germacrone] | 1.8 | 2.2 |
| CC(C)=C1CC(=O)[C@]2(C)CC[C@H]2[C@@H](C)CC1=O [Compound 3] | 1 | 1.0 |
| C/C1=C\CC2(OC2(C)C)C(=O)C/C(C)=C/CC1 (stereo not drawn) [Compound 4] | 1 | 1.9 |
| Cc1ncc([N+](=O)[O-])n1CCO [Met, metronidazole, reference compound] | 22.7 | 100 |
